According to ChEMBL document CHEMBL1155806, “Inorganic polyhedral metallacarborane inhibitors of HIV protease: a new approach to overcoming antiviral resistance” (J Med Chem, 2008):

molecular target: Protease (Human immunodeficiency virus 1, UniProt Q9YQ12); test: Inhibition of wild-type HIV1 BH10 protease expressed in Escherichia coli by spectrophotometric assay
Procedure, shortened: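 Recombinant PR refolded from inclusion bodies and purified. 8-10 pmol enzyme in 1 mL 0.1 M sodium acetate pH 4.7, 0.3 M NaCl, 4 mM EDTA. Ki obtained by fitting the Williams–Morrison competitive inhibition equation.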

Ki	SMILES
0.04 nM	CC(C)(C)NC(=O)[C@@H]1C[C@@H]2CCCC[C@@H]2CN1C[C@@H](O)[C@H](Cc1ccccc1)NC(=O)[C@H](CC(N)=O)NC(=O)c1ccc2ccccc2n1
0.12 nM	CC(C)(C)NC(=O)[C@@H]1CN(Cc2cccnc2)CCN1C[C@@H](O)C[C@@H](Cc1ccccc1)C(=O)N[C@H]1c2ccccc2C[C@H]1O

SMILES	Ki
Cc1cccc(C)c1OCC(=O)N[C@@H](Cc1ccccc1)[C@@H](O)C[C@H](Cc1ccccc1)NC(=O)[C@H](C(C)C)N1CCCNC1=O [LOPINAVIR]	0.018 nM
